Anti-infective test results gathered from many reports (values: NIAID ChemDB through PubChem).

All rows: growth or infection tests; organism: HIV-1; cell line: MT-4; method: MTT; endpoint: EC50

ECn: concentration that inhibits the pathogen or its effect by n%. Blank or dashed fields: not listed here. Neighbouring rows are from separate reports.

compound | changes | strain or isolate | value
COC(=O)CC1c2cccn2S(=O)(=O)c2ccccc2N1C(=O)c1ccc(C)cc1 | - | IIIB | >244 µM
Cc1ccc2sn(/N=C/c3ccccc3F)c(=O)c2c1 | Y181C | - | >18 µM
S=C(NCc1ccco1)Nc1cccc(Br)c1 | - | IIIB | >38.2 µM
O=C(CC1Nc2ccccc2S(=O)(=O)n2cccc21)OCc1ccc(Cl)cc1 | - | IIIB | 24 µM
COc1c(C(=O)/C=C(/C)Nc2ccccc2)c(O)c(S(=O)(=O)OC2CCCC2)c2occc12 | - | IIIB | 0.000044 µM
Cc1cc(/C=C/C#N)cc(C)c1Oc1nc(NC2CCN(Cc3cccc(C#N)c3)CC2)nc2ccsc12 | NNRTI-resistant (RT Y181C) | IIIB | 0.0269 µM
Cc1ccc(Cl)cc1NC(=S)NCc1ccco1 | - | IIIB | >100 µM
COc1c(-c2cc(C)on2)c(O)c(S(=O)(=O)OC2CCCCC2)c2occc12 | - | IIIB | 0.000034 µM
COCCNC(=O)CSc1cnc(Nc2ccc(C#N)cc2)nc1Oc1c(C)cc(C#N)cc1C | K103N | - | 0.0019 µM
CCc1c(Cc2cc(C)cc(C)c2)n(COCC#Cc2ccc(CO[Si](c3ccccc3)(c3ccccc3)C(C)(C)C)cc2)c(=O)[nH]c1=O | K103N + Y181C | IIIB | >100 µM
Cc1ccc2sn(/N=C/c3ccccc3)c(=O)c2c1 | EFV-resistant (K103 V179D P225H) | - | >33 µM
C#CCOCn1c(Cc2ccccc2)c(CO)c(=O)[nH]c1=O | - | - | 9 µM
CC(C)[C@H](C)CC[C@](C)(O)[C@H]1C(=O)C[C@H]2[C@@H]3C(=O)C=C4C[C@@H](O)CC[C@]4(C)[C@H]3CC[C@@]21C | N155H integrase inhibitor-resistant | NL4-3 | 0.1269 µM
CCOC(=O)C12CC(=O)N1c1ccccc1N(C)n1cccc12 | - | IIIB | >369 µM
Cc1cc(C#N)cc(C)c1Oc1nc(Nc2ccc(C#N)cc2)ncc1SCC(=O)NCC1CCCO1 | Y181C | - | 0.0489 µM
CCc1c(Cc2cc(C)cc(C)c2)n(COCC#Cc2cc3ccccc3c3ccccc23)c(=O)[nH]c1=O | WT | IIIB | 0.3 µM
FC(F)(F)c1cccc(NC(=S)NCc2ccco2)c1 | - | IIIB | >44.7 µM
Cc1ccc(CN2CCC(Nc3nc(Oc4c(C)cc(/C=C/C#N)cc4C)c4sccc4n3)CC2)cc1 | NNRTI-resistant (RT F227L V106A) | IIIB | 0.129 µM
COc1c2ccoc2c(S(=O)(=O)Oc2ccc(F)cc2)c2oc(C)cc(=O)c12 | - | IIIB | 0.000055 µM
Cc1ccc2sn(/N=C/c3ccccc3Cl)c(=O)c2c1 | - | 59 | 82 µM
COc1c(-c2cc(C)[nH]n2)c(O)c(S(=O)(=O)Oc2ccc(F)cc2)c2occc12 | - | IIIB | 0.000017 µM
CCc1c(Cc2cc(C)cc(C)c2)n(Cc2ccc(C#CCO)cc2)c(=O)[nH]c1=O | - | - | 0.004 µM
CCc1c(Cc2cc(C)cc(C)c2)n(COCC#Cc2cnccn2)c(=O)[nH]c1=O | K103N + Y181C | IIIB | 11 µM
COc1c2ccoc2c(S(=O)(=O)OC2CCCCC2)c2oc(C)cc(=O)c12 | - | IIIB | 0.000059 µM
Cc1cc(/C=C/C#N)cc(C)c1Oc1nc(NC2CCN(Cc3ccncc3)CC2)nc2ccsc12 | NNRTI-resistant (RT Y181C) | IIIB | 0.00579 µM
Cc1cc(C#N)cc(C)c1Oc1nc(Nc2ccc(C#N)cc2)ncc1SCC(=O)NCCN1CCN(C(=O)OC(C)(C)C)CC1 | K103N | - | 0.0303 µM
CCc1c(Cc2cc(C)cc(C)c2)n(COCc2ccc(C#CCO)cc2)c(=O)[nH]c1=O | Y181C | IIIB | 0.07 µM
CCCOCn1c(C(F)c2cccc(C#N)c2)c(CC)c(=O)[nH]c1=O | K103N + Y181C | IIIB | 14 µM
Fc1cccc(NC(=S)NC2CCN(Cc3ccccc3)CC2)c1 | - | IIIB | >32 µM
Cc1cc(C#N)cc(C)c1Oc1nc(NC2CCC(NCc3ccc(O)cc3)CC2)nc2ccsc12 | NNRTI-resistant (RT L100I) | IIIB | >20.1 µM
CNC(=O)CC1(C(=O)NC)Nc2ccccc2S(=O)(=O)n2cccc21 | - | IIIB | >255 µM
Cc1cc(/C=C/C#N)cc(C)c1Oc1nc(NC2CCN(Cc3ccc(F)cc3)CC2)nc2ccsc12 | NNRTI-resistant (RT Y181C) | IIIB | 0.0272 µM
C=CCOCn1c(C(F)c2cccc(C#N)c2)c(CC)c(=O)[nH]c1=O | K103N + Y181C | IIIB | 20 µM
COc1c(C(=O)/C=C(/C)Nc2ccccc2)c(O)c(S(=O)(=O)Oc2ccc([N+](=O)[O-])cc2)c2occc12 | - | IIIB | 0.000042 µM
Cc1cc(C#N)cc(C)c1Oc1nc(Nc2ccc(C#N)cc2)ncc1SCC(=O)Nc1ccc(S(C)(=O)=O)cc1 | RES056 | - | 0.5926 µM
FC(F)(F)c1cccc(NC(=S)NC2CCN(Cc3ccccc3)CC2)c1 | - | IIIB | >26 µM
Cc1cc(C#N)cc(C)c1Oc1nc(NC2CCN(CC(=O)N3CCOCC3)CC2)nc2ccsc12 | F227L V106A | - | ≥17.9 µg/mL
Cc1ccc2sn(/N=C/c3ccc(Cl)cc3)c(=O)c2c1 | - | - | 24 µM
CCc1c(Cc2ccccc2C)n(COCC#Cc2ccc(N)cc2)c(=O)[nH]c1=O | K103N + Y181C | IIIB | >39 µM
O=c1c2ccccc2sn1/N=C/c1ccc2c(c1)OCO2 | Y181C | - | >17 µM
Cc1ccc(C(=O)N2c3ccccc3S(=O)(=O)n3cccc3C2CC(=O)O)cc1 | - | IIIB | >326 µM
C=CCNC(=O)CSc1cnc(Nc2ccc(C#N)cc2)nc1Oc1c(C)cc(C#N)cc1C | - | IIIB | 0.0033 µM
C=C(C)COCn1c(Cc2ccccc2)c(CF)c(=O)[nH]c1=O | EFV:K103R+V179D+P225H | IIIB | >20 µM
Fc1ccccc1NC(=S)NC1CCN(Cc2ccccc2)CC1 | - | IIIB | >95 µM
O=c1c2ccccc2sn1/N=C/c1ccccc1[N+](=O)[O-] | - | - | 19 µM
CCc1c(Cc2cc(C)cc(C)c2)n(COCC#Cc2cccc(CO)c2)c(=O)[nH]c1=O | K103N + Y181C | IIIB | 1.8 µM
O=C(COCC1Nc2ccccc2S(=O)(=O)n2cccc21)c1ccc(Cl)cc1 | - | IIIB | 72 µM
CCOCn1c(C(=O)c2cccc(C#N)c2)c(CC)c(=O)[nH]c1=O | EFV | IIIB | >100 µM
CCc1c(Cc2cc(C)cc(C)c2)n(COCCO)c(=O)[nH]c1=O | Y181C | Clinical isolates | 3 µM
Cc1cc(C#N)cc(C)c1Oc1nc(Nc2ccc(C#N)cc2)ncc1SCC(=O)NCc1ccc(O)cc1 | F227L V106A | - | 0.3066 µM
Cc1cc(/C=C/C#N)cc(C)c1Oc1nc(NC2CCN(Cc3cccc(Br)c3)CC2)nc2ccsc12 | NNRTI-resistant (RT E138K) | IIIB | 0.129 µM
C=CS(=O)(=O)N1CCC(NS(=O)(=O)c2c(C(N)=O)[nH]c3ccc(Br)cc23)C1 | - | IIIB | 9.74 µM
C=CCOCn1c(Cc2ccccc2)c(CO)c(=O)[nH]c1=O | Y181C | Clinical isolates | >100 µM
Cc1cc(C#N)cc(C)c1Oc1nc(Nc2ccc(C#N)cc2)ncc1SCC(=O)NC1CCN(C(=O)OC(C)(C)C)CC1 | RES056 | - | 0.5858 µM
Cc1ccc2sn(/N=C/c3ccccc3[N+](=O)[O-])c(=O)c2c1 | Y181C | - | >100 µM
CC[C@H](CC[C@](C)(O)[C@H]1CC[C@H]2[C@@H]3[C@H](O)C=C4C[C@@H](O)CC[C@]4(C)[C@H]3CC[C@@]21C)C(C)C | - | NL4-3 | 1.22 µM
O=c1c2ccccc2sn1/N=C/c1ccc(O)c(O)c1 | Y181C | - | >44 µM
C#CCNC(=O)CSc1cnc(Nc2ccc(C#N)cc2)nc1Oc1c(C)cc(C#N)cc1C | K103N | - | 0.0016 µM
CCc1c(Cc2cc(C)cc(C)c2)n(COCc2cn(Cc3c(F)cccc3F)nn2)c(=O)[nH]c1=O | WT | IIIB | 0.07 µM
Cc1cc(C#N)cc(C)c1Oc1nc(Nc2ccc(C#N)cc2)ncc1SCC(N)=O | RES056 | - | 0.734 µM
O=c1c2ccccc2sn1/N=C/c1cccc(F)c1 | K103N + Y181C | - | >15 µM

A second listing of 7 rows from above:

compound | changes | strain or isolate | value
CCc1c(Cc2cc(C)cc(C)c2)n(COCC#Cc2cccc(CO)c2)c(=O)[nH]c1=O | K103N + Y181C | IIIB | 1.8 µM
Fc1cccc(NC(=S)NC2CCN(Cc3ccccc3)CC2)c1 | - | IIIB | >32 µM
CNC(=O)CC1(C(=O)NC)Nc2ccccc2S(=O)(=O)n2cccc21 | - | IIIB | >255 µM
COc1c(C(=O)/C=C(/C)Nc2ccccc2)c(O)c(S(=O)(=O)OC2CCCC2)c2occc12 | - | IIIB | 0.000044 µM
CCc1c(Cc2cc(C)cc(C)c2)n(COCC#Cc2ccc(CO[Si](c3ccccc3)(c3ccccc3)C(C)(C)C)cc2)c(=O)[nH]c1=O | K103N + Y181C | IIIB | >100 µM
CCc1c(Cc2cc(C)cc(C)c2)n(COCC#Cc2cc3ccccc3c3ccccc23)c(=O)[nH]c1=O | WT | IIIB | 0.3 µM
COC(=O)CC1c2cccn2S(=O)(=O)c2ccccc2N1C(=O)c1ccc(C)cc1 | - | IIIB | >244 µM